In patent publication US10993448B2, “Method for sanitizing fresh produce” (Dole Fresh Vegetables, Inc., priority 2014, dated 2021):

How the values were obtained:
Details in all cases: for Average log reduction: vs water control
Salmonella = test: Suspension tests, Salmonella; format: cell-based, sv. Typhimurium
E. coli O157:H7 = test: Suspension tests, E. coli; format: cell-based
Listeria monocytogenes = test: Suspension tests, Listeria; format: cell-based

Question: What does the source list for chlorine?
Answer: Average (bacterial load) (Salmonella; 30 seconds at 4° C., Water 5.32 × 10^6): 0.00; Average log reduction (Salmonella; 30 seconds at 4° C.): *; Average (bacterial load) (Salmonella; 30 seconds at 15° C., Water 2.70 × 10^6): 0.00; Average log reduction (Salmonella; 30 seconds at 15° C.): *; Average (bacterial load) (Salmonella; 30 seconds at 40° C., Water 4.36 × 10^6): 0.00; Average log reduction (Salmonella; 30 seconds at 40° C.): *; Average (bacterial load) (Salmonella; 90 seconds at 4° C., Water 1.57 × 10^6): 0.00; Average log reduction (Salmonella; 90 seconds at 4° C.): *; Average (bacterial load) (Salmonella; 90 seconds at 15° C., Water 4.54 × 10^6): 0.00; Average log reduction (Salmonella; 90 seconds at 15° C.): *; Average (bacterial load) (Salmonella; 90 seconds at 40° C., Water 7.42 × 10^6): 0.00; Average log reduction (Salmonella; 90 seconds at 40° C.): *; Average (bacterial load) (E. coli O157:H7; 30 seconds at 4° C., Water 5.72 × 10^6): 0.00; Average log reduction (E. coli O157:H7; 30 seconds at 4° C.): *; Average (bacterial load) (E. coli O157:H7; 30 seconds at 15° C., Water 5.96 × 10^6): 0.00; Average log reduction (E. coli O157:H7; 30 seconds at 15° C.): *; Average (bacterial load) (E. coli O157:H7; 30 seconds at 40° C., Water 3.22 × 10^6): 0.00; Average log reduction (E. coli O157:H7; 30 seconds at 40° C.): *; Average (bacterial load) (E. coli O157:H7; 90 seconds at 4° C., Water 3.96 × 10^6): 0.00; Average log reduction (E. coli O157:H7; 90 seconds at 4° C.): *; Average (bacterial load) (E. coli O157:H7; 90 seconds at 15° C., Water 5.74 × 10^6): 0.00; Average log reduction (E. coli O157:H7; 90 seconds at 15° C.): *; Average (bacterial load) (E. coli O157:H7; 90 seconds at 40° C., Water 3.14 × 10^6): 0.00; Average log reduction (E. coli O157:H7; 90 seconds at 40° C.): *; Average (bacterial load) (Listeria monocytogenes; 30 seconds at 4° C., Water 4.96 × 10^5): 0.00; Average log reduction (Listeria monocytogenes; 30 seconds at 4° C.): *; Average (bacterial load) (Listeria monocytogenes; 30 seconds at 15° C., Water 2.24 × 10^6): 0.00; Average log reduction (Listeria monocytogenes; 30 seconds at 15° C.): *; Average (bacterial load) (Listeria monocytogenes; 30 seconds at 40° C., Water 2.32 × 10^6): 0.00; Average log reduction (Listeria monocytogenes; 30 seconds at 40° C.): *; Average (bacterial load) (Listeria monocytogenes; 90 seconds at 4° C., Water 2.06 × 10^5): 0.00; Average log reduction (Listeria monocytogenes; 90 seconds at 4° C.): *; Average (bacterial load) (Listeria monocytogenes; 90 seconds at 15° C., Water 7.14 × 10^4): 2.00 × 10^0; Average log reduction (Listeria monocytogenes; 90 seconds at 15° C.): 4.55; Average (bacterial load) (Listeria monocytogenes; 90 seconds at 40° C., Water 2.50 × 10^6): 0.00; Average log reduction (Listeria monocytogenes; 90 seconds at 40° C.): *
